Results of unrelated studies side by side (data: NIAID ChemDB).

Common to all: tests in culture; organism: Cryptococcus neoformans

MIC50, MIC90 and the like: level of inhibition, or share of isolates inhibited.

compound	method	strain	read-out	result
N#CC(C#N)C(CC(=O)c1ccccc1)c1ccc2ccccc2c1	-	ATCC 32264	MIC	>50 µg/mL
Cc1nn([C@H](C)[C@](O)(Cn2cncn2)c2ccc(F)cc2F)c2ccc([N+](=O)[O-])cc12	-	ATCC 4065	MIC90	0.5 µg/mL
CCN1C2=NC[C@@H](C3CCCCC3)N2C[C@@H]1Cc1ccccc1	-	ATCC 32045	EC50	34.5 µg/mL
[Cl-].[Li+]	-	H99	MIC	>42 µg/mL
CC(C)C[C@@H]1CN2C(=NC[C@H]2C2CCCCC2)N1CCC12CC3CC(CC(C3)C1)C2	-	ATCC 32045	MIC	10–16 µg/mL
C[C@H]1[C@H](O)[C@@H](C)/C=C/C=C/C=C/C=C/C=C/C=C/C=C/[C@H](O[C@@H]2O[C@H](C)[C@@H](O)[C@H](N)[C@@H]2O)C[C@@H]2O[C@](O)(C[C@@H](O)C[C@@H](O)CC[C@H](O)[C@@H](O)C[C@@H](O)CC(=O)O[C@H]1C)C[C@H](O)[C@H]2C(=O)O	-	-	MIC	1.2 µM
C[C@@H](c1nc(-c2ccc(C#N)cc2)cs1)[C@](O)(Cn1cncn1)c1cc(F)ccc1F	-	-	MIC90	0.016–0.125 µg/mL
COc1cc2cc(/C=C/C(=O)c3ccc(Br)cc3)c(Cl)nc2cc1OC	-	ATCC 32264	MIC	>50 µg/mL
CCCOc1ccc2nc(NC(=O)OC)[nH]c2c1	-	ATCC 14116	EC90	2.1 µg/mL
CC[C@H]1/C=C(\C)[C@H](O)[C@H](C)C[C@H](OC)[C@H]2O[C@@](O)(C(=O)C(=O)N3CCCC[C@H]3C(=O)O[C@H](/C(C)=C/[C@@H]3CC[C@@H](O)[C@H](OC)C3)[C@H](C)[C@@H](O)CC1=O)[C@H](C)C[C@@H]2OC	-	H99	MIC	>42 µg/mL
CCN1C2=NC[C@H](CC3CCCCC3)N2C[C@@H]1Cc1ccccc1	-	ATCC 32045	MIC	62–125 µg/mL
Clc1ccc(-c2c(C(c3ccccc3)n3ccnc3)cnn2-c2ccc(Cl)cc2)cc1	-	-	MBC	33.3 µM
CC[C@@H]1C[C@@]2(CC)O/C(=C\C(=O)OC)[C@@]3(CC)[C@H](CC)[C@]1(C)[C@@]23C	broth dilution	ATCC	MIC80	0.41 µM
CC(C)(C)C1CCC(CN2C3=NC[C@H](Cc4ccccc4)N3C[C@@H]2Cc2ccccc2)CC1	-	ATCC 32045	EC50	2.5 µg/mL
CC(C)(C)[C@](O)(COc1ccc(Cl)cc1)Cn1cncn1	-	-	MIC90	<0.01 µg/mL
CCCCCOc1ccc(-c2cc(-c3ccc(C(=O)N[C@H]4C[C@@H](O)[C@@H](O)NC(=O)[C@@H]5[C@@H](O)[C@@H](C)CN5C(=O)[C@H]([C@H](O)CC(N)=O)NC(=O)[C@H]([C@H](O)[C@@H](O)c5ccc(O)c(OS(=O)(=O)O)c5)NC(=O)[C@@H]5C[C@@H](O)CN5C(=O)[C@H]([C@@H](C)O)NC4=O)cc3)no2)cc1	-	-	MIC90	>8 µg/mL
CCc1nn([C@H](C)[C@](O)(Cn2cncn2)c2ccc(F)cc2F)c2ccc(F)cc12	-	ATCC 4065	MIC90	0.25 µg/mL
C[C@@H]1O[C@@H](Oc2c(-c3ccc(O)c(O)c3)oc3cc(O)cc(O)c3c2=O)[C@H](O)[C@H](O)[C@H]1O	broth dilution	ATCC 208821	MLC	200 µg/mL
COc1ccc(/C=C/C(=O)c2ccc(OC)c(OC)c2)cc1OC	-	ATCC 32264	MIC	>50 µg/mL
OC(Cn1cncn1)(Cn1cncn1)c1ccc(F)cc1F	-	H99 ΔCNA1 mutant	MIC	6.25 µg/mL
CC1(C)C=C2C3CCC4[C@@]5(C)CCC(O)C(C)(C)C5CC[C@@]4(C)[C@]3(C)CC[C@@]2(C(=O)O)CC1	broth dilution	ATCC 208821	MLC	>200 µg/mL
COc1ccc(C(=O)CC(c2cc3ccccc3nc2Cl)C(C#N)C#N)cc1OC	-	ATCC 32264	MIC	>50 µg/mL
C1CCC([C@H]2CN3C(=NC[C@@H]3C3CCCCC3)N2CCC23CC4CC(CC(C4)C2)C3)CC1	-	ATCC 32045	MIC	8–16 µg/mL
O=C(/C=C/c1ccccc1)c1ccccc1	-	ATCC 32264	MIC	>50 µg/mL
CC(C)(C)C1CCC(CN2C3=NC[C@@H](C4CCCCC4)N3C[C@H]2CC2CCCCC2)CC1	-	ATCC 32045	MIC	8–16 µg/mL
C=C(Cl)/C=C/[C@H](O)CC(=C)C[C@H]1OC2[C@@H](O)[C@]3(O)C[C@@H](O)[C@H](C)[C@H](CCC/C=C\[C@@H]4C[C@@H](O)C[C@]5(C[C@H](OC)CC(CC(=O)[C@@H](C)[C@H](OC(C)=O)[C@@H](C)C(=C)C[C@@H]6C[C@@](C)(O)C[C@]7(C[C@H](OC(C)=O)CC(CC(=O)O[C@@H]([C@@H]1O)[C@H]2C)O7)O6)O5)O4)O3	-	ATCC66031	MIC	0.0195 µg/mL
c1ccc2[nH]cnc2c1	-	ATCC 14116	EC50	<4 µg/mL
O=C(/C=C/c1ccc2ccccc2c1)c1ccccc1	-	ATCC 32264	MIC	>50 µg/mL
CN(C/C=C/C#CC(C)(C)C)Cc1cccc2ccccc12	-	-	MIC50	0.25 µg/mL
CCC(C)n1ncn(-c2ccc(N3CCN(c4ccc(OC[C@H]5CO[C@](Cn6cncn6)(c6ccc(Cl)cc6Cl)O5)cc4)CC3)cc2)c1=O	-	KCTC 7224	MIC	0.13 µg/mL
CC(C)(C)C1CCC(CN2C3=NC[C@@H](CC4CCCCC4)N3C[C@@H]2C2CCCCC2)CC1	-	ATCC 32045	EC50	2.1 µg/mL
c1ccc(-c2c(C(c3ccccc3)n3ccnc3)cnn2-c2ccccc2)cc1	-	-	MIC	22 µM
O=C(/C=C/c1ccc(Cl)cc1Cl)c1ccc(Cl)cc1Cl	-	ATCC 32264	MIC	>50 µg/mL
Clc1ccc(-n2ncc(C(c3ccccc3)n3ccnc3)c2-c2ccccc2)c(Cl)c1	-	-	MBC	33.3 µM
CCN1C2=NC[C@H](Cc3ccccc3)N2C[C@H]1CC1CCCCC1	-	ATCC 32045	MIC	62–125 µg/mL
COC(=O)c1cc(O)c(O)c(O)c1	broth dilution	ATCC 208821	MLC	>200 µg/mL
CCCCCOc1ccc(-c2ccc(-c3ccc(C(=O)N[C@H]4C[C@@H](O)[C@@H](O)NC(=O)[C@@H]5[C@@H](O)[C@@H](C)CN5C(=O)[C@H]([C@H](C)O)NC(=O)[C@H]([C@H](O)[C@@H](O)c5ccc(O)cc5)NC(=O)[C@@H]5C[C@@H](O)CN5C(=O)[C@H]([C@H](C)O)NC4=O)cc3)cc2)cc1	-	-	MIC	1–128 µg/mL
COC(=O)Nc1nc2ccccc2[nH]1	-	IU4	EC50	<3.6 µg/mL
CC1(C)C=C2C3CCC4[C@@]5(C)CCC(=O)C(C)(C)C5CC[C@@]4(C)[C@]3(C)CC[C@@]2(C(=O)O)CC1	broth dilution	ATCC 208821	MIC	200 µg/mL

Again, the opening 4 rows:

compound,method,strain,read-out,result
N#CC(C#N)C(CC(=O)c1ccccc1)c1ccc2ccccc2c1,-,ATCC 32264,MIC,>50 µg/mL
Cc1nn([C@H](C)[C@](O)(Cn2cncn2)c2ccc(F)cc2F)c2ccc([N+](=O)[O-])cc12,-,ATCC 4065,MIC90,0.5 µg/mL
CCN1C2=NC[C@@H](C3CCCCC3)N2C[C@@H]1Cc1ccccc1,-,ATCC 32045,EC50,34.5 µg/mL
[Cl-].[Li+],-,H99,MIC,>42 µg/mL

Two numbers with a dash give a range or band. An empty or dashed field is not shown. ECn is the concentration giving n% inhibition of infection, replication or growth. Rows are shuffled and stem from different studies.